Experimental data: paper PMC4686829, “Comprehensive analysis of antibody recognition in convalescent humans from highly pathogenic avian influenza H5N1 infection” (2015)

Molecular target: HA glycoprotein of A/Beijing/01/2003 (H5N1, clade 7) (influenza A virus A/Beijing/01/2003 (H5N1))

Question: With “AVFluIgG03, full-length human IgG1 (antibody)” as the substance, how does the IC50 of neutralisation of pseudovirus bearing this HA read?
Answer: Its IC50 of neutralisation of pseudovirus bearing this HA is 3 ng/mL.

Question: With “100F4, full-length human IgG1 (antibody)” as the substance, how does the IC50 of neutralisation of pseudovirus bearing this HA read?
Answer: The IC50 of neutralisation of pseudovirus bearing this HA was 37 ng/mL.

Question: Which IC50 of neutralisation of pseudovirus bearing this HA does the source give for 65C6, full-length human IgG1 (antibody) here?
Answer: Its IC50 of neutralisation of pseudovirus bearing this HA is 6 ng/mL.
